Pooled drug test results. Numbers come from NIAID ChemDB, via PubChem.

All rows: whole-cell or culture tests; species: HIV-1; read-out: EC50

ECn is the concentration giving n% inhibition of infection, replication or growth.

structure | strain | changes | setting | cells | read by | result
Nc1ccn([C@@H]2CS[C@H](CO)O2)c(=O)n1 | - | A62V V75I F77L F116Y Q151M | - | Primary T lymphocytes | p24 / ELISA | 0.5 µM
CC(C)=CCOc1cc(NC(=S)c2ccsc2C)ccc1Cl | IIIB | RT-V179D | - | CEM | cytopathic effect | 0.012 µg/mL
Nc1nc2c(ncn2[C@H]2CC[C@@H](CO)O2)c(=O)[nH]1 | MB48 ddI-resistant | - | 5 d | MT-2 | cytopathic effect / XTT / RT activity | 6.5 µM
O=C=Nc1cccc(S(=O)(=O)c2cccc(N=C=O)c2)c1 | RF | - | - | CEM + CEM-SS | XTT | >100 µg/mL
Cc1cn([C@H]2C[C@H](N=[N+]=[N-])[C@@H](CO)O2)c(=O)[nH]c1=O | UC10-resistant (RT K103N) | RT-K103N | - | CEM + CEM-SS | XTT | 0.003 µM
Cc1cc(C#Cc2cccc(N)c2)cc(C)c1Oc1ccnc(NC2CCN(Cc3cccc(C(N)=O)c3)CC2)n1 | IIIB | - | - | MT-4 | MTT | 0.007 µM
O=[N+]([O-])c1ccc(S(=O)(=O)c2ccc([N+](=O)[O-])cc2C(F)(F)F)c(C(F)(F)F)c1 | RF | - | - | CEM + CEM-SS | XTT | >100 µg/mL
Nc1ncnc2c1ncn2[C@H]1CC[C@@H](CO)O1 | LAV-1 | - | - | CEM | virus yield | <1 µM
O=C1N(Cc2ccc(CO)cc2)[C@H](Cc2ccccc2)[C@H](O)[C@@H](O)[C@@H](Cc2ccccc2)N1Cc1ccc(CO)cc1 | A018A PRE-AZT | - | - | MT-2 | virus yield | <0.14 µM
Cc1cc(C#Cc2ccccc2)cc(C)c1Oc1ccnc(NC2CCN(Cc3ccc(S(N)(=O)=O)cc3)CC2)n1 | IIIB | K103N | - | MT-4 | MTT | 0.024 µM
C#C[C@]1(CO)O[C@@H](n2cnc3c(N)nc(F)nc32)C[C@@H]1O | Clinical isolate | A114S/M184V | - | MT4-GFP | fluorescence | 0.04014 µM
CCCc1cc(=O)oc2c3c(c4c(c12)OC(C)(C)C=C4)O[C@@H](C)[C@H](C)[C@@H]3O | IIIB | - | - | CEM + CEM-SS | XTT | 0.2 µM
O=C1N(Cc2ccccc2)[C@H](Cc2ccccc2)[C@H](O)[C@@H](O)[C@@H](Cc2ccccc2)N1Cc1ccccc1 | RF | - | - | MT-2 | hybridisation | <0.83 µM
CC(C)=CCN1Cc2cc(Cl)cc3[nH]c(=S)n(c23)C[C@@H]1C | - | RT-D67N K70R T215Y K219Q A98G | - | MT-4 | - | <3 µM
Cc1cc(C#Cc2cccc(N)c2)cc(C)c1Oc1ccnc(NC2CCN(Cc3ccc(S(N)(=O)=O)cc3)CC2)n1 | IIIB | K103N | - | MT-4 | MTT | 0.023 µM
O=C(O)COc1ccc(S(=O)(=O)c2ccc(OCC(=O)O)c([N+](=O)[O-])c2)cc1[N+](=O)[O-] | RF | - | - | CEM + CEM-SS | XTT | >100 µg/mL
CC(C)Nc1cccnc1N1CCN(C(=O)c2cc3cc(NS(C)(=O)=O)ccc3[nH]2)CC1 | IIIB | - | - | MT-4 | cytopathic effect | 0.02 µM
Nc1cccc(CN2C(=O)N(Cc3ccc4ccccc4c3)[C@H](Cc3ccccc3)[C@H](O)[C@@H](O)[C@H]2Cc2ccccc2)c1 | RF | - | - | MT-2 | hybridisation | <0.084 µM
Cc1occc1C(=S)Nc1ccc(Cl)c(/C=N/OC(C)(C)C)c1 | IIIB | - | - | CEM | cytopathic effect | 0.016 µg/mL
CC(C)CN(C[C@@H](O)[C@H](Cc1ccccc1)NC(=O)[C@H](CC(N)=O)NC(=O)c1ccc2ccccc2n1)C(=O)NC(C)(C)C | RF | - | - | MT-2 | - | 0.044 µM
O=C1N(Cc2ccc(F)cc2)[C@H](Cc2ccccc2)[C@H](O)[C@@H](O)[C@@H](Cc2ccccc2)N1Cc1ccc(F)cc1 | RF | - | - | MT-2 | hybridisation | <0.6 µM
Cc1ccnc2c1NC(=O)c1cccnc1N2C1CC1 | HE | - | - | MOLT-4 | cytopathic effect | 0.05 µg/mL
Nc1nc2c(ncn2[C@H]2C=C[C@@H](CO)C2)c(=O)[nH]1 | NL4-3 WT | - | 5 d | MT-2 | cytopathic effect / XTT / RT activity | 0.3 µM
Cc1ccnc2c1NC(=O)c1cccnc1N2C1CC1 | NL4-3 | V108I | - | C8166 | antigen | 0.433 µM
Cc1cn([C@H]2C[C@H](N=[N+]=[N-])[C@@H](CO)O2)c(=O)[nH]c1=O | KMR50 | - | - | MT-4 | cytopathic effect / trypan blue | 0.005 µM
CO[P@](=O)(c1cc(C)cc(/C=C/C#N)c1)c1c(C(N)=O)[nH]c2ccc(Cl)c(F)c12 | BH10 | K103N | - | MT-4 | - | 0.00026 µM
Nc1nc(=O)n([C@@H]2CS[C@H](CO)O2)cc1F | RTMC(184) (RT D67N K70R M184V T215F K219Q) | RT-D67N K70R M184V T215F K219Q | - | HT4 + HT4 LacZ-1 | plaque count | >500 µM
O=C1N(CC2CCCC2)[C@H](Cc2ccccc2)[C@H](O)[C@@H](O)[C@@H](Cc2ccccc2)N1CC1CCCC1 | RF | - | - | MT-2 | hybridisation | <1.7 µM
Cc1cn([C@H]2C=C[C@@H](CO)O2)c(=O)[nH]c1=O | NI-10.93 (HXB2 RT T69N K70R Q151M) | RT-T69N K70R Q151M | - | MT-4 | cytopathic effect | >6 µM
Cc1cc(C#Cc2cccc(N)c2)cc(C)c1Oc1ccnc(Nc2ccc(C#N)cc2)n1 | IIIB | RES056 | - | MT-4 | MTT | >5.005 µM
Cc1ccnc2c1NC(=O)c1cccnc1N2C1CC1 | RTMC (RT D67N K70R T215F K219Q) | RT-D67N K70R T215F K219Q | - | HT4 + HT4 LacZ-1 | plaque count | 0.07 µM
Cc1cccc(C)c1Oc1ccnc(Nc2ccc(C#N)cc2)n1 | IIIB | - | - | MT-4 | MTT | 0.005 µM
O=C=Nc1cc(S(=O)(=O)c2ccc(Cl)c(N=C=O)c2)ccc1Cl | RF | - | - | CEM + CEM-SS | XTT | >100 µg/mL
Cc1cc(C#Cc2cccc(N)c2)cc(C)c1Oc1ccnc(NC2CCN(Cc3ccc(C#N)cc3)CC2)n1 | IIIB | L100I | - | MT-4 | MTT | >0.261 µM
Cc1cn([C@H]2C[C@H](N=[N+]=[N-])[C@@H](CO)O2)c(=O)[nH]c1=O | LAI | - | - | Primary T lymphocytes | p24 / ELISA | 0.03 µM
COc1c2ccccc2c(OC)c2c(C)cc(=O)[nH]c12 | MC99 deltaTAT/REV | - | - | 1A2 | syncytia / β-galactosidase | 7.3 µg/mL
Nc1ccn([C@H]2CC[C@@H](CO)O2)c(=O)n1 | LZ-07.96 (HXB2 RT T69N L74I Q151M M184V) | RT-T69N L74I Q151M M184V | - | MT-4 | cytopathic effect | >20 µM
O=C(/C=C/c1ccc(O)cc1)NCCc1ccc(O)cc1 | MC99 deltaTAT/REV | - | - | 1A2 | syncytia / β-galactosidase | <3.9 µg/mL
Fc1cccc(F)c1C1SCc2nc3ccccc3n21 | Calanolide A-resistant (RT T139I) | RT-T139I | - | CEM + CEM-SS | XTT | 3.9 µM
COc1cc(/C=C/C(=O)NCCc2ccc(O)cc2)ccc1O | MC99 deltaTAT/REV | - | - | 1A2 | syncytia / β-galactosidase | 3.2 µg/mL
CC(=O)c1ccc(C)cc1NC(C(N)=O)c1c(Cl)cccc1Cl | IIIB | RT-E138K | - | MAGI | MTT | 0.053 µM
CC(=O)N(O)CCCCCNC(=O)CCC(=O)N(O)CCCCCNC(=O)CCC(=O)N(O)CCCCCN | BaL | - | - | Macrophage + Monocytes/macrophages | XTT / p24 | ~100 µM
Cc1cc(C#Cc2ccc(N)cc2)cc(C)c1Oc1ccnc(Nc2ccc(C#N)cc2)n1 | IIIB | RES056 | - | MT-4 | MTT | >5.385 µM
CC(C)=CCOc1cc(NC(=S)c2ccoc2C)ccc1Cl | IIIB | RT-V179D | - | CEM | cytopathic effect | 0.006 µg/mL
Cc1cn([C@H]2C[C@H](N=[N+]=[N-])[C@@H](CO)O2)c(=O)[nH]c1=O | IIIB/LAI | - | - | MOLT-4 (CLONE 8) + MOLT-4 | antigen | 0.0004 µM
N#CC[C@H](C1CCCC1)n1cc(-c2ncnc3[nH]ccc23)cn1 | - | 4xAZT | - | Primary T lymphocytes | p24 / ELISA | 0.09 µM
O=C1N(Cc2ccc(CO)cc2)[C@H](Cc2ccccc2)[C@H](O)[C@@H](O)[C@@H](Cc2ccccc2)N1Cc1ccc2ccccc2c1 | RF | - | - | MT-2 | hybridisation | <0.21 µM
Nc1ccn([C@H]2CC[C@@H](CO)O2)c(=O)n1 | J4A ddC-resistant | - | 5 d | MT-2 | cytopathic effect / XTT / RT activity | 8 µM
Cc1cn([C@H]2C[C@H](N=[N+]=[N-])[C@@H](CO)O2)c(=O)[nH]c1=O | D148/88 | - | - | PBMC | p24 / ELISA | 0.566 µM
Cc1ccnc2c1NC(=O)c1cccnc1N2C1CC1 | NNRTI-resistant (RT P225H) | RT-P225H | - | MAGI | β-galactosidase | 1.2 µM
Cc1ccnc2c1NC(=O)c1cccnc1N2C1CC1 | D79 | - | - | PBMC | p24 / ELISA | 0.051 µM
CCCc1cc(=O)oc2c3c(c4c(c12)OC(C)(C)C=C4)O[C@H](C)[C@@H](C)[C@@H]3O | TIBO R82150-resistant (RT A98G V108I) | RT-A98G V108I | - | CEM + CEM-SS | XTT | 22 µM

The first 7 rows once more:

{"structure": "Nc1ccn([C@@H]2CS[C@H](CO)O2)c(=O)n1", "changes": "A62V V75I F77L F116Y Q151M", "cells": "Primary T lymphocytes", "read by": "p24 / ELISA", "result": "0.5 µM"}
{"structure": "CC(C)=CCOc1cc(NC(=S)c2ccsc2C)ccc1Cl", "strain": "IIIB", "changes": "RT-V179D", "cells": "CEM", "read by": "cytopathic effect", "result": "0.012 µg/mL"}
{"structure": "Nc1nc2c(ncn2[C@H]2CC[C@@H](CO)O2)c(=O)[nH]1", "strain": "MB48 ddI-resistant", "setting": "5 d", "cells": "MT-2", "read by": "cytopathic effect / XTT / RT activity", "result": "6.5 µM"}
{"structure": "O=C=Nc1cccc(S(=O)(=O)c2cccc(N=C=O)c2)c1", "strain": "RF", "cells": "CEM + CEM-SS", "read by": "XTT", "result": ">100 µg/mL"}
{"structure": "Cc1cn([C@H]2C[C@H](N=[N+]=[N-])[C@@H](CO)O2)c(=O)[nH]c1=O", "strain": "UC10-resistant (RT K103N)", "changes": "RT-K103N", "cells": "CEM + CEM-SS", "read by": "XTT", "result": "0.003 µM"}
{"structure": "Cc1cc(C#Cc2cccc(N)c2)cc(C)c1Oc1ccnc(NC2CCN(Cc3cccc(C(N)=O)c3)CC2)n1", "strain": "IIIB", "cells": "MT-4", "read by": "MTT", "result": "0.007 µM"}
{"structure": "O=[N+]([O-])c1ccc(S(=O)(=O)c2ccc([N+](=O)[O-])cc2C(F)(F)F)c(C(F)(F)F)c1", "strain": "RF", "cells": "CEM + CEM-SS", "read by": "XTT", "result": ">100 µg/mL"}

Blank or dashed fields: not listed here. Conditions beyond the fields shown may differ between rows.